Data source: PubChem BioAssay AID624099 (ICCB-Longwood, 2012)
This is one part, drawn at random, of about 21,000 reagents. In the full data, 497 (2.4%) are marked active. 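Higher z means weaker E2 silencing; only reporter increases were scored, and knock-downs that hurt cell survival may mask genuine repressor factors.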 Unmarked entries are inactive. Reagent sequences are not shown.

- Aim: 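Human genes that papillomavirus E2 requires to repress the HPV18 LCR promoter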 (primary screen)
- System: human C33A cervical carcinoma cells (HPV-negative) stably expressing BPV1 E2 and an HPV18 LCR luciferase reporter
- Reagent: siRNA pool against human genes, 40 nM
- Duration: 72 h
- Read-out: 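HPV18 LCR reporter light per well, converted to plate-wise z-scores that exclude control wells, and averaged over triplicate plates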
- Scale: mean z-score and z-score: higher = stronger reporter signal, weaker E2 silencing
- Rule for the call: 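Mean z ≥ 2 together with z ≥ 2 in two or more of the three replicates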

Target gene	PubChem SID	mean z-score	z-score, replicate A	z-score, replicate B	z-score, replicate C
USP18 (ubiquitin specific peptidase 18)	SID134310333	0.51	0.48	0.67	0.39
HERC6	SID134310788	-0.21	-0.21	-0.04	-0.39
LILRB1 (leukocyte immunoglobulin like receptor B1)	SID134321120	0.97	0.82	1.11	0.98
CDC42BPA (CDC42 binding protein kinase alpha)	SID56478730	-0.21	-0.75	-0.33	0.45
CALCB (calcitonin related polypeptide beta)	SID134319454	1.65	1.57	1.91	1.46
RSBN1L (round spermatid basic protein 1 like)	SID134329707	0.63	0.73	0.64	0.52
KRTAP10-8 (keratin associated protein 10-8)	SID134329140	-1.7	-1.65	-1.51	-1.94
ZNF814 (zinc finger protein 814)	SID134328944	-0.43	-0.51	-0.41	-0.38
H1-5 (H1.5 linker histone, cluster member)	SID134316347	-2.12	-1.73	-2.44	-2.18
RPS24 (ribosomal protein S24)	SID134315513	-2.04	-2.04	-2.32	-1.76
ANG (angiogenin)	SID134315563	1.11	0.73	1.36	1.23
LOC391445 (retired record)	SID134327228	0.35	0.57	0.77	-0.31
OR5AK2 (olfactory receptor family 5 subfamily AK member 2)	SID134329907	-0.07	-0.3	0	0.08
PTGER3 (prostaglandin E receptor 3)	SID134311144	0.06	-0.03	0	0.21
ZNF250 (zinc finger protein 250)	SID134326398	0.28	0.62	0.4	-0.18
HHIPL2 (HHIP like 2)	SID134320558	0.07	0.21	0.13	-0.11
DOCK6 (dedicator of cytokinesis 6)	SID134329434	0.74	0.62	0.69	0.91
DPF1 (double PHD fingers 1)	SID134329287	-0.57	-0.92	-0.55	-0.23
SPMIP3 (sperm microtubule inner protein 3)	SID134325298	1.42	1.62	1.22	1.41
DNTTIP1 (deoxynucleotidyltransferase terminal interacting protein 1)	SID134319222	-0.15	-0.49	-0.14	0.2
LOC388073 (retired record)	SID134328614	-0.23	-0.07	-0.26	-0.37
LINC00649 (long independently transcribed non-coding RNA 649)	SID134329630	0.42	0.17	0.32	0.76
TCF7L2 (transcription factor 7 like 2)	SID134310094	0.85	0.76	1.02	0.76

Laid out differently: 2 of the entries above
{"Target gene":"PTGER3 (prostaglandin E receptor 3)","PubChem SID":"SID134311144","mean z-score":0.06,"z-score, replicate A":-0.03,"z-score, replicate B":0,"z-score, replicate C":0.21}
{"Target gene":"ZNF250 (zinc finger protein 250)","PubChem SID":"SID134326398","mean z-score":0.28,"z-score, replicate A":0.62,"z-score, replicate B":0.4,"z-score, replicate C":-0.18}
